Test results reported in the supplement of paper PMC3578754.

Assays:
Test in all cases: fold change of IC50 against reference virus; higher = more resistant; Cell-culture drug susceptibility tests of virus bearing the protease of each isolate, gathered from many studies.
indinavir = compound: CC(C)(C)NC(=O)[C@@H]1CN(Cc2cccnc2)CCN1C[C@@H](O)C[C@@H](Cc1ccccc1)C(=O)N[C@H]1c2ccccc2C[C@H]1O [indinavir]
saquinavir = compound: CC(C)(C)NC(=O)[C@@H]1C[C@@H]2CCCC[C@@H]2CN1C[C@@H](O)[C@H](Cc1ccccc1)NC(=O)[C@H](CC(N)=O)NC(=O)c1ccc2ccccc2n1 [saquinavir]
ritonavir = compound: CC(C)c1nc(CN(C)C(=O)N[C@H](C(=O)N[C@@H](Cc2ccccc2)C[C@H](O)[C@H](Cc2ccccc2)NC(=O)OCc2cncs2)C(C)C)cs1 [ritonavir]
nelfinavir = compound: Cc1c(O)cccc1C(=O)N[C@@H](CSc1ccccc1)[C@H](O)CN1C[C@H]2CCCC[C@H]2C[C@H]1C(=O)NC(C)(C)C [nelfinavir]
lopinavir = compound: Cc1cccc(C)c1OCC(=O)N[C@@H](Cc1ccccc1)[C@@H](O)C[C@H](Cc1ccccc1)NC(=O)[C@H](C(C)C)N1CCCNC1=O [lopinavir]

| Test System | fold change of IC50 against reference virus (indinavir) | fold change of IC50 against reference virus (saquinavir) | fold change of IC50 against reference virus (ritonavir) | fold change of IC50 against reference virus (nelfinavir) | fold change of IC50 against reference virus (lopinavir) |
| --- | --- | --- | --- | --- | --- |
| HIV-1 isolate 1276 (protease changes: T12S K43R M46I L63P V82F, study 7) | 2.3 | 0.2 | 14.8 | 7.4 | 4.5 |
| HIV-1 isolate 1407 (protease changes: T12S L19I L63P V77I I93L, study 15) | 1.1 | 0.7 | 1.1 | 1.9 | 0.9 |
| HIV-1 isolate 838 (protease changes: L63A, study 109) | 0.4 | 0.5 | 0.5 | 0.5 | 0.5 |
| HIV-1 isolate 363 (protease changes: L10I T12P K14R G16E K20T M36I P39S I54V I62V L63T G68D A71V V82A I93L, study 109) | 2.1 | 0.6 | 11 | 3.4 | 6.5 |
| HIV-1 isolate 839 (protease changes: N37E D60E I64V, study 7) | 1.1 | 1 | 1.2 | 1.6 | 1 |
| HIV-1 isolate 746 (protease changes: L38V R57K D60E Q61E L63P A71V I72V V77I I93L, study 109) | 0.9 | 1 | 0.8 | 1.1 | 0.6 |
| HIV-1 isolate 1560 (protease changes: N37E F53I D60E I64V V82A, study 7) | 1.6 | 0.7 | 7.7 | 1.8 | 1.7 |
| HIV-1 isolate 1563 (protease changes: I15V I62V L63P I72V, study 15) | 1.5 | 1 | 1.8 | 1.8 | 1.5 |
| HIV-1 isolate 257 (protease changes: L19I M36I R41K R57K L63S, study 114) | 0.8 | 0.6 | 1.2 | 1 | 0.7 |
| HIV-1 isolate 1424 (protease changes: L10V I15V M36I M46L I54V I62V L63P A71V V82A I84V L90M I93L, study 145) | 11 | 25 | 63 | 20 | 35 |
| HIV-1 isolate 886 (protease changes: L10V L23I F53L I54V R57K L63P A71V V82A L90M, study 145) | 6.3 | 20 | 65 | 15 | 26 |
| HIV-1 isolate 806 (protease changes: I13V R41K I64V H69Y, study 15) | 0.6 | 0.5 | 0.7 | 0.8 | 0.7 |
| HIV-1 isolate 590 (protease changes: T12S I15V G16E L19I M36L L63T H69K L89M I93L, study 114) | 0.8 | 0.6 | 0.7 | 1.3 | 0.4 |
| HIV-1 isolate 1194 (protease changes: E35D N37D L63S V82I, study 109) | 0.3 | 0.6 | 0.6 | 0.4 | 0.3 |
| HIV-1 isolate 209 (protease changes: T12S K14R I15V L19I M36V R41K L63P H69K K70R L89M I93L, study 114) | 1.4 | 1 | 1.4 | 1.5 | 0.9 |
| HIV-1 isolate 522 (protease changes: I15V M36I R41K L63P E65D K70R, study 116) | 1.1 | 1.1 | 1.4 | 1.1 | 1.1 |
| HIV-1 isolate 812 (protease changes: L10F I15V K20V L23I E35D M36I N37D M46I I50V L63P A71V V82T I85V L89V L90M, study 15) | 18 | 18 | 140 | 19 | 100 |
| HIV-1 isolate 395 (protease changes: T12N, study 109) | 0.3 | 0.2 | 0.3 | 0.4 | 0.3 |
| HIV-1 isolate 1074 (protease changes: I13V K14R K20I E35D M36I R41K H69K V82I L89M, study 114) | 0.5 | 0.8 | 1.2 | 1.1 | 0.7 |
| HIV-1 isolate 550 (protease changes: L10S T12M I13V K14R G17E K20I E34K M36I Q61N I62M L63S C67E H69K V77I L89M, study 114) | 0.7 | 0.8 | 0.6 | 0.6 | 0.7 |
| HIV-1 isolate 1439 (protease changes: L10F V32I E35D M36I M46L A71V V82A, study 8) | 10.2 | 1.5 | 12.1 | 7.4 | 5.2 |
| HIV-1 isolate 1475 (protease changes: L10F M46I I50V, study 30) | 1.6 | 1.3 | 5.2 | 2.9 | 19 |
| HIV-1 isolate 911 (protease changes: T12P K14R E35D R41K I62V L63P G68E A71T V77I I93L, study 65) | 0.5 | 0.7 | 0.5 | 0.9 | 0.4 |

| Test System | fold change of IC50 against reference virus (indinavir) | fold change of IC50 against reference virus (saquinavir) | fold change of IC50 against reference virus (ritonavir) | fold change of IC50 against reference virus (nelfinavir) | fold change of IC50 against reference virus (lopinavir) |
| --- | --- | --- | --- | --- | --- |
| HIV-1 isolate 1452 (protease changes: L10I I13V K14R K20R L33F E35D M36I R41K F53L I54V D60E Q61G I62V L63P A71V G73S V82A L90M, study 109) | 59 | 208 | 158 | 153 | 144 |
| HIV-1 isolate 905 (protease changes: T12S K14R I15V L19T M36V R41K L63P H69K L89M I93L, study 114) | 1.6 | 1.5 | 1.5 | 1.6 | 0.1 |
| HIV-1 isolate 375 (protease changes: L10I K20I M46I L63Q I64V I72T G73C T74S V77I L90M I93L, study 65) | 22.7 | 11.8 | 4.1 | 87.2 | 2.7 |
| HIV-1 isolate 495 (protease changes: L10I K20R L23I E35D M36I M46I F53L I54V D60E L63P A71V I84V L90M I93L, study 145) | 9.4 | 306 | 187 | 56 | 28 |
| HIV-1 isolate 167 (protease changes: L10I M46I Q58E Q61N L63P I64V G73T V82A L90M I93L, study 116) | 25 | 4 | 32 | 31 | 14 |
| HIV-1 isolate 1328 (protease changes: E35D L63P I64L, study 109) | 0.3 | 0.4 | 0.5 | 0.5 | 0.3 |
| HIV-1 isolate 1204 (protease changes: L10F M46I I50V, study 30) | 1.2 | 1.4 | 5 | 3.3 | 15 |
| HIV-1 isolate 668 (protease changes: L10I I13V G16A Q18H N37D M46I I54V Q61H I62V L63P A71L I72T L76V V77I V82A N88G L90M I93L, study 8) | 6.8 | 0.4 | 26.6 | 8.5 | 78.7 |
| HIV-1 isolate 9 (protease changes: I13A K14R K20I M36I R41K L63P H69K L89M, study 114) | 0.5 | 0.6 | 0.5 | 0.6 | 0.6 |
| HIV-1 isolate 1457 (protease changes: T12S L19I L63P V77I I93L, study 15) | 1.2 | 0.8 | 1.1 | 1.9 | 0.7 |
| HIV-1 isolate 156 (protease changes: L10F M46I I47V I50V, study 30) | 2.4 | 2 | 6.5 | 4.1 | 31 |
| HIV-1 isolate 604 (protease changes: I13V K14R K20I M36I R41K L63S H69K P79S T80P L89M, study 114) | 0.4 | 0.6 | 0.3 | 0.5 | 0.4 |
| HIV-1 isolate 93 (protease changes: L10I I13V K20R L33F E35D M36I N37D M46L I54V I62V L63P G68E A71T I72V V82A L90M I93L, study 15) | 11 | 10 | ≥ 800 | 29 | 48 |
| HIV-1 isolate 721 (protease changes: L10S I13V K14R K20I A22T E35D M36I R41K L63P H69K V82I L89M, study 114) | 1.3 | 2.3 | 3.9 | 3.9 | 2.1 |
| HIV-1 isolate 1148 (protease changes: L10I K20I N37D R57K D60E L63P A71I G73S V77I L90M I93L, study 116) | 11 | 10 | 5.4 | 45 | 1.9 |
| HIV-1 isolate 325 (protease changes: L63P V77I I93L, study 7) | 1.4 | 0.9 | 1.2 | 1.9 | 0.9 |
| HIV-1 isolate 760 (protease changes: L10I K14R L24I M46I I54V L63P H69Q A71V V77I V82A I93M, study 116) | 19 | 1.8 | 45 | 19 | 17 |
| HIV-1 isolate 720 (protease changes: T12N E35D L63Q I64V, study 15) | 0.4 | 0.3 | 0.3 | 0.4 | 0.3 |
| HIV-1 isolate 306 (protease changes: L33F E34Q I54V Q58E L63P A71V V77I V82A L90M I93L, study 7) | 4.1 | 1.8 | 59.5 | 9 | 2.9 |
| HIV-1 isolate 1593 (protease changes: L10I T12P I13V I15V K20I E35N M36I R41K I64M H69K L89M, study 114) | 0.6 | 0.8 | 0.8 | 1.1 | 0.8 |
| HIV-1 isolate 1301 (protease changes: I13V H69P I72V, study 15) | 0.7 | 0.7 | 0.8 | 1 | 0.7 |
| HIV-1 isolate 124 (protease changes: I62V L63P V77I I93L, study 15) | 1.6 | – | 1.6 | 3 | 1.1 |

Fold change is the IC50 on the isolate divided by the IC50 on a reference virus; 1 = unchanged, higher = more resistant. Changes are given against the subtype B consensus. No active / inactive call. The values were gathered from many studies (numbered anew) with different assays, which the source does not name. Most viruses are clinical isolates; some are laboratory strains or clones with known resistance changes. Isolates with mixed residues are left out; stretches that were not sequenced show no change. Round top values that many isolates share are read here as limits; other very high values and 0.1 may be limits too. The protease changes I3V and N37S, insertions and deletions cannot be read from the source.
